Pooled drug test results. Numbers come from NIAID ChemDB, via PubChem.

All rows: whole-cell or culture tests; species: Respiratory syncytial virus; endpoint: EC50

Lines come from different laboratories, so protocols vary.

O=C(/C=C/c1ccc(O)c(O)c1)O[C@@H]1CC(O)(C(=O)O)C[C@@H](OC(=O)/C=C/c2ccc(O)c(O)c2)C1O ; strain: 57754 (TYPE A6) ; cell line: HEP-2 ; method: cytopathic effect ; value: 0.16 µg/mL
COC(=O)c1cc(Nc2ccc(Nc3nc(Nc4cccc(S(=O)(=O)N(CCC(N)=O)CCC(N)=O)c4)nc(Nc4cccc(S(=O)(=O)N(CCC(N)=O)CCC(N)=O)c4)n3)cc2S(=O)(=O)[O-])ccc1-c1ccc(Nc2ccc(Nc3nc(Nc4cccc(S(=O)(=O)N(CCC(N)=O)CCC(N)=O)c4)nc(Nc4cccc(S(=O)(=O)N(CCC(N)=O)CCC(N)=O)c4)n3)cc2S(=O)(=O)[O-])cc1C(=O)OC ; strain: A2 ; cell line: HFF ; method: ELISA ; value: >25 µM
CC(NC(=S)Nc1ccc(NC(=O)c2nccc3ccccc23)cc1)c1cc2ccccc2o1 ; strain: A2 ; cell line: HFF ; method: ELISA ; value: >10 µg/mL
O=C(NCCc1ccccc1)C1=Cc2ccncc2CC1 ; strain: A2 ; cell line: MA-104 ; method: cytopathic effect ; value: >344 µM
COc1cc(OC)c(NC(=S)Nc2ccc(NC(C)=O)cc2)cc1Cl ; strain: A2 ; cell line: HFF ; value: >20 µM
CC(=O)O[C@H]1[C@@H](Oc2c(C)c(O)c3c(=O)cc(C)oc3c2C)O[C@H](CO)[C@@H](O)[C@@H]1O ; cell line: HEP-2 ; method: cytopathic effect ; value: 1.3 µg/mL
c1ccc2c(c1)CSSC2 ; strain: FM58-8 (A) clinical isolate ; cell line: HeLa ; method: cytopathic effect ; value: 7.1 µM
N#Cc1cc(NC(=O)c2ccccc2)c(=O)n2c1[nH]c1ccccc12 ; strain: FM-58-8 ; cell line: HEP-2 ; method: plaque count ; value: 0.1 µg/mL
O=C(Nc1ccc(NC(=S)Nc2ccc(Cl)c(C(F)(F)F)c2)cc1)c1ccco1 ; cell line: HFF ; value: >10 µg/mL
Cc1cn([C@@H]2O[C@@H](CO)[C@H](O)[C@H]2O)c(=O)[nH]c1=O ; strain: A2 ; cell line: VERO B ; method: cytopathic effect ; value: >1000 µM
COc1cc(OC)c(NC(=S)Nc2ccc(NC(=O)c3ccco3)cc2C#N)cc1Cl ; cell line: HFF ; value: >10 µg/mL
CCOC(=O)c1cc(C#N)c2[nH]c3ccccc3n2c1=O ; cell line: HEP-2 ; method: plaque count ; value: 15.3 µg/mL
C/C(=N\NC(=O)c1ccncc1)c1ccc(Br)cc1 ; cell line: HeLa cells ; method: MTT ; value: >4 µg/mL
Cc1ccc2c(c1)CSSC2 ; strain: LONG ; cell line: HeLa ; method: cytopathic effect ; value: 5.1 µM
O=C(/C=C/c1ccc(O)c(O)c1)O[C@@H]1CC(O)(C(=O)O)C[C@@H](OC(=O)/C=C/c2ccc(O)c(O)c2)C1O ; cell line: HEP-2 ; method: cytopathic effect ; value: 0.5 µg/mL
COc1cc(OC)c(NC(=S)Nc2ccc(NC(=O)c3ccco3)cc2C)cc1Cl ; cell line: HFF ; value: >10 µg/mL
CCOC(=O)c1cc(NC(=O)c2ccccc2)c(=O)n2c1[nH]c1ccccc12 ; strain: LONG ; cell line: HEP-2 ; method: plaque count ; value: >40 µg/mL
CN[C@H]1C[C@@H](n2cnc3c(N)ncnc32)[C@H](O)[C@@H]1O ; cell line: HFF ; value: >100 µg/mL
COCCNC(=O)c1cc2c(s1)-c1ccccc1N(C(=O)c1ccc(NC(=O)c3ccccc3-c3ccccc3)cc1)CC2 ; strain: LONG ; cell line: HeLa ; method: plaque count ; value: 0.98 µM
NC(=O)CCN(CCC(N)=O)S(=O)(=O)c1cccc(Nc2nc(Nc3cccc(S(=O)(=O)N(CCC(N)=O)CCC(N)=O)c3)nc(Nc3ccc(-c4ccc(Nc5nc(Nc6cccc(S(=O)(=O)N(CCC(N)=O)CCC(N)=O)c6)nc(Nc6cccc(S(=O)(=O)N(CCC(N)=O)CCC(N)=O)c6)n5)cc4S(=O)(=O)O)c(S(=O)(=O)O)c3)n2)c1 ; strain: A2 ; cell line: HEP-2 ; method: cytopathic effect ; value: 0.25 µg/mL
Nc1ncnc2c1ncn2[C@@H]1O[C@@H](CO)[C@H](O)[C@H]1O ; strain: A2 ; cell line: VERO B ; method: cytopathic effect ; value: >1000 µM
COc1ccc2c(c1)CSSC2 ; strain: LONG ; cell line: HeLa ; method: cytopathic effect ; value: 9.7 µM
COc1cc(OC)c(NC(=S)Nc2ccc(NC(=O)c3ccco3)c(C)c2)cc1Cl ; cell line: HFF ; value: >10 µg/mL
O=C(NC1CC1)c1cc2c(s1)-c1ccccc1N(C(=O)c1ccc(NC(=O)c3ccccc3-c3ccccc3)cc1)CC2 ; strain: YM-53403-R02 Y1631H mutation ; cell line: HeLa ; method: plaque count ; value: >25 µM
Fc1cccc2c1CSSC2 ; strain: LONG ; cell line: HeLa ; method: cytopathic effect ; value: >284 µM
N#Cc1cc(C#N)c2[nH]c3ccccc3n2c1=O ; strain: FM-58-8 ; cell line: HEP-2 ; method: plaque count ; value: 1.43 µg/mL
COc1cc(OC)c(NC(=S)Nc2ccc(NC(=O)c3ccco3)c(OC)c2)cc1Cl ; cell line: HFF ; value: >10 µg/mL
Cc1ccc(S(=O)(=O)N(CCC(N)=O)CCC(N)=O)cc1Nc1nc(Nc2ccc(Nc3ccc(-c4ccc(Nc5ccc(Nc6nc(Nc7cc(S(=O)(=O)N(CCC(N)=O)CCC(N)=O)ccc7C)nc(Nc7cc(S(=O)(=O)N(CCC(N)=O)CCC(N)=O)ccc7C)n6)cc5S(=O)(=O)[O-])cc4S(=O)(=O)O)c(S(=O)(=O)O)c3)c(S(=O)(=O)[O-])c2)nc(Nc2cc(S(=O)(=O)N(CCC(N)=O)CCC(N)=O)ccc2C)n1 ; strain: A2 ; cell line: HFF ; method: ELISA ; value: >25 µM
Nc1ncnc2c1ncn2[C@H]1C[C@@H](O)[C@H](CO)O1 ; strain: A2 ; cell line: VERO B ; method: cytopathic effect ; value: >1000 µM

4 of the rows above, restated:

structure	strain	cell line	method	value
COc1cc(OC)c(NC(=S)Nc2ccc(NC(=O)c3ccco3)cc2C#N)cc1Cl		HFF		>10 µg/mL
COc1cc(OC)c(NC(=S)Nc2ccc(NC(=O)c3ccco3)c(OC)c2)cc1Cl		HFF		>10 µg/mL
COc1ccc2c(c1)CSSC2	LONG	HeLa	cytopathic effect	9.7 µM
COc1cc(OC)c(NC(=S)Nc2ccc(NC(=O)c3ccco3)cc2C)cc1Cl		HFF		>10 µg/mL

ECn: concentration that inhibits the pathogen or its effect by n%. Blank or dashed fields: not listed here.